The values that follow come from patent publication US20250283886A1.

Where “and” joins values, the source holds several entries; their conditions need not be identical. Identical values can stand only once.

Test [1] has as its target W (region with N-terminal W of … or …). Description: real-time single-molecule sequencing with hTET and yPIP, bottom trace.
Test [2] has as its target …-dsQ24-Cy3B-SV. Described as above.
Test [3] concerns the target W (region with N-terminal W of … or …). Description: real-time single-molecule sequencing with hTET and yPIP, middle trace.
Test [4] has as its target …-dsQ24-Cy3B-SV. Described as above.
Test [5] concerns the target polypeptide of sequence …. Nature of the test: real-time single-molecule sequencing trace with hTET.
The target in test [6] is … after VPr has further cut W and two alanine residues (N-terminal F). The description is as above.
Test [7] concerns the target … after VPr has cut Y and two alanine residues (N-terminal W). The test is described as above.
For test [8], the target named is W (region with N-terminal W of … or …). Nature of the test: real-time single-molecule sequencing with hTET and yPIP, top trace.
Test [9] deals with …-dsQ24-Cy3B-SV. Described as above.
In test [10] the target is W (region with N-terminal W of … or …). Description: real-time single-molecule sequencing trace with hTET and yPIP.
For test [11], the target named is …-dsQ24-Cy3B-SV. The description is as above.
In test [12] the target is W (region with N-terminal W of … or …). The test is described as above. The source holds these as a separate data set.
For test [13], the target named is …-dsQ24-Cy3B-SV. The description is as above. The source holds these as a separate data set.

B1: atClpS2-V1 (protein)
recognition protein: MSDSPVDLKPKPKVKPKLERPKLYKVMLLNDDYTPMSFVTVVLKAVFRMSEDTGRRVMMTAHRFGSAVVVVCERDIAETKAKEATDLGKEAGFPLMFTTEPEE
On to B1, for which the number printed under the region label (not named on the sheet) in [1] is 0.22; with …-dsQ24-Cy3B-SV [2], 0.35; in [3] it was 0.26; in the test with …-dsQ24-Cy3B-SV [4], 0.46; in [5], 0.51; in test [6], 1.41 and 1.49. The number printed under the region label (not named on the sheet) is 0.12 in [7]; 0.27 in [8]; 0.42 in the test with …-dsQ24-Cy3B-SV [9]; 0.21 in test [10]; 1.08 and 0.4 with …-dsQ24-Cy3B-SV [11]; 0.15 in test [12]. This molecule returned a number printed under the region label (not named on the sheet) with …-dsQ24-Cy3B-SV [13] of 0.32.
